Article PMC6328579, “Post-exposure immunotherapy for two ebolaviruses and Marburg virus in nonhuman primates” (Nature Communications, 2019)

Molecular target: EBOV GPΔTM Mayinga; residues 18–650 (wild type) (Ebola virus (EBOV), Mayinga, UniProt Q05320)
Test: ELISA
Conditions: both partners purified

B1: FVM04 (antibody, V domains shown)
VH: EVQLVQSGGGLVQPGGSMRLSCEASGLSLSDYFMHWVRQAQGKGLEWIGLIQTKAFTYKTEYPAAVKGRFTISRDDSKNTLYLQMSSLKPEDTALYYCIAVTPDFYYWGQGVLVTVSS
VL: DVVMTQSPSFLSASVGDRVTITCRASQDITINLNWFQHKPGKAPKRLIYVASRLERGVPSRFSGSGSGTEFTLTISSLQPEDFATYYCQQYNNYPLTFGPGTKLDIK
B1: binds.
